Drawing on paper PMC7462287, “Cryo-EM structure of the fully-loaded asymmetric anthrax lethal toxin in its heptameric pre-pore state” (2020), this text covers stoichiometry N for one substance.

In this assay the target is Protective antigen heptameric pre-pore (PA7) (Bacillus anthracis) (UniProt P13423).

Take “Lethal factor (LF) (from UniProt P15917 34-809)”: the stoichiometry N (as a rule, the number of molecules, sites or subunits per partner or assembly) came to 3.
